Results of unrelated studies side by side (data: NIAID ChemDB).

Shared fields: whole-cell or culture tests; organism: Vaccinia virus; cell line: E6SM; endpoint: EC50

Neighbouring rows are from separate reports.

SMILES,value
NC(=S)c1cncc([C@@H]2O[C@H](CO)[C@@H](O)[C@@H]2O)c1,≥100 µg/mL
CC=NC(=N)c1nc(-c2cccc(C)c2)n(Cc2ccccc2)n1,>4 µg/mL
NC(=S)c1cncc([C@H]2O[C@H](CO)[C@@H](O)[C@@H]2O)c1,≥100 µg/mL
CO[C@H](CO)[C@@H](O)CCn1ccc(N)nc1=O,>400 µg/mL
CC1(C)[C@@H](CO)CC[C@@]1(C)Cn1ccc(=O)[nH]c1=O,>400 µg/mL
CC=NC(=N)c1nc(-c2cccc(C)c2)n(COCCO)n1,>10 µg/mL
OC[C@H]1O[C@H](c2cncc(Br)c2)[C@@H](O)[C@@H]1O,≥100 µg/mL
CC1(C)[C@@H](CCO)C[C@H]1n1nnc2c(=O)[nH]cnc21,70 µg/mL
OC[C@H]1O[C@@H](c2cc(C(F)(F)F)c(F)cc2F)C[C@@H]1O,>400 µg/mL
O=C(C1CCCCC1)N(O)c1ccc(Cl)cc1,>80 µg/mL
COc1cc(F)c([C@H]2C[C@H](O)[C@@H](CO)O2)cc1[N+](=O)[O-],>400 µg/mL
CC(=O)OCCOCN1C=CC(=O)NS1(=O)=O,>400 µg/mL
O=[N+]([O-])c1cc([C@H]2C[C@H](O)[C@@H](CO)O2)c(F)cc1F,>400 µg/mL
CO[C@H](CO)[C@@H](O)CCn1cnc2c(=O)[nH]c(N)nc21,>400 µg/mL
O=C1C=CN(COCCO)S(=O)(=O)N1COCCO,>400 µg/mL
CC1(C)[C@@H](CCO)C[C@H]1n1cnc2c(=O)[nH]c(N)nc21,>400 µg/mL
CC(=O)OCCOCN1C(=O)C=CN(COCCO)S1(=O)=O,>400 µg/mL
CO[C@H](CO)[C@@H](O)CCn1cc(C)c(=O)[nH]c1=O,>400 µg/mL
C=C(N=CC)c1nc(-c2ccc(OC)cc2)n(C2O[C@H](CO)[C@@H](O)[C@H](O)[C@H]2O)n1,>200 µg/mL
CCOC(=O)C1=CN(COCCO)S(=O)(=O)NC1=O,>400 µg/mL
CC=NC(=N)c1nc(-c2ccccc2)n(C/C=C/c2ccccc2)n1,>4 µg/mL
N#Cc1cncc([C@@H]2O[C@H](CO)[C@@H](O)[C@@H]2O)c1,≥100 µg/mL
CC(=O)OCCOCN1C=CC(=O)N(COCCOC(C)=O)S1(=O)=O,>400 µg/mL
C=C(N=CC)c1nc(-c2ccccc2)n(C2O[C@H](CO)[C@@H](O)[C@H](O)[C@H]2O)n1,>200 µg/mL
OC[C@H]1O[C@H](c2cc(F)c(F)cc2F)C[C@@H]1O,>400 µg/mL
Nc1ccn(CC[C@H](O)CCO)c(=O)n1,>400 µg/mL
CON=C1C[C@H](n2cc(C)c(=O)[nH]c2=O)O[C@@H]1CO,>200 µg/mL
O=C(C1CC1)N(O)c1ccc(Cl)cc1,>80 µg/mL
CC1(C)[C@@H](CO)CC[C@@]1(C)Cn1cnc2c(N)ncnc21,>400 µg/mL
OC[C@H]1O[C@@H](c2cc(Cl)c(F)cc2F)C[C@@H]1O,>400 µg/mL
CC1(C)[C@@H](CCO)C[C@H]1n1nnc2c(=O)[nH]c(N)nc21,200 µg/mL
OC[C@H]1O[C@H](c2ccc(F)cc2F)C[C@@H]1O,>400 µg/mL
OC[C@H]1O[C@@H](c2cc(C(O)CBr)c(F)cc2F)C[C@@H]1O,>3.2 µg/mL
Nc1nc(N)c(Cl)c(OCCOCP(=O)(O)O)n1,>1200 µM
N#Cc1cc([C@H]2C[C@H](O)[C@@H](CO)O2)c(F)cc1F,>400 µg/mL
CC=NC(=N)c1nc(-c2ccc(C)cc2)n(COCCO)n1,>10 µg/mL
COC(CI)c1cc([C@H]2C[C@H](O)[C@@H](CO)O2)c(F)cc1F,>80 µg/mL
C=C(N=CC)c1nc(-c2ccccc2)n([C@@H]2O[C@H](CO)[C@@H](O)[C@H]2O)n1,>200 µg/mL
CC1(C)[C@@H](CO)CC[C@@]1(C)Cn1nnc2c(=O)[nH]cnc21,>400 µg/mL
CC=NC(=N)c1nc(-c2ccc(OC)cc2)n(Cc2ccccc2)n1,>40 µg/mL
Nc1cc(OCCOCP(=O)(O)O)nc(N)n1,180 µM

For reference, 4 entries again:

SMILES | value
CC=NC(=N)c1nc(-c2ccc(OC)cc2)n(Cc2ccccc2)n1 | >40 µg/mL
CC(=O)OCCOCN1C(=O)C=CN(COCCO)S1(=O)=O | >400 µg/mL
CC1(C)[C@@H](CCO)C[C@H]1n1cnc2c(=O)[nH]c(N)nc21 | >400 µg/mL
O=C(C1CCCCC1)N(O)c1ccc(Cl)cc1 | >80 µg/mL

ECn is the concentration giving n% inhibition of infection, replication or growth.